# PubChem BioAssay AID1259414 – Drosophila RNAi Screening Center – 2018
# Aim: 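Fly genes that alter Wolbachia amount inside host cells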 (primary screen)
# Cell system: Drosophila JW18 cells infected with Wolbachia
# Reagent: long dsRNA against Drosophila genes, 0.25 µg dsRNA per well of a 384-well plate
# Duration: 5 days
# Treatment: cells persistently infected with Wolbachia before knock-down; no added drug
# Measurement: 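Automated imaging of bacterial rRNA staining divided by host cell count, reported as plate-normalised robust z-score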
# Scale: Wolbachia per cell robust z: higher = more Wolbachia per host cell than the plate typical
# Rule for the call: 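Hit when robust z is 1.5 or more, or -1.5 or less, in at least two of three replicates; excludes dsRNAs with several or no targets, genes not expressed in JW18 and well A1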
# The screen tested about 24,000 reagents; this is a random part of those that have a named target and a result. Over the whole deposit, about 1,210 (5%) are marked active. 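Inactive calls also include excluded dsRNAs with several or no targets, genes unexpressed in JW18, and well A1, regardless of score.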 Unmarked entries are inactive. The numbers tell different reagents against one gene apart. A plus sign joins genes that one reagent is predicted to hit.
target gene,dsRNA no.,"Wolbachia per cell robust z, rep 1","Wolbachia per cell robust z, rep 2","Wolbachia per cell robust z, rep 3"
sau,1,0.446,2,-0.322
CG32793,1,-3.99,0.133,-0.339
CG32793,2,-0.574,0.406,-1.06
CG32793,3,0.263,0.0892,-1.41
S-Lap4,1,-0.921,-0.242,-0.485
S-Lap4,2,-0.369,-0.759,-0.592
CG17721,1,-0.0115,0.274,0.714
Nepl11,1,-3.35,0.569,0.534
e(r),1,0.304,-1.05,1.01
CG3270,1,0.0904,-0.45,0.0951
FER,1,0.288,0.173,0.109
FER,2,-1.28,0.0647,-0.391
FER,3,-0.138,1.15,0.676
CG31751,1,-0.855,0.54,-3.49
CG31751,2,0.953,-1.09,1.04
Hrb27C,1,1.88 (active),2.57,2.06
Hrb27C,2,1.31,1.69,1.13
CG9010,1,0.331,-1.21,0.168
CG12923,1,0.206,0.243,0.453
Alas,1,-0.0885,0.628,0.745
CG3907,1,-4.59 (active),-1.19,-6.98
prim,1,0.0204,-2.45,-2.07

Records listed so far marked active:
target gene,dsRNA no.,"Wolbachia per cell robust z, rep 1","Wolbachia per cell robust z, rep 2","Wolbachia per cell robust z, rep 3"
Hrb27C,1,1.88 (active),2.57,2.06
CG3907,1,-4.59 (active),-1.19,-6.98

Additional results follow:
target gene,dsRNA no.,"Wolbachia per cell robust z, rep 1","Wolbachia per cell robust z, rep 2","Wolbachia per cell robust z, rep 3"
Met,1,-4.41 (active),-2.2,-0.649
Met,2,0.227,-0.845,0.0238
CG13380 + CG4174,1,0.0362,0.183,0.489
CG13380 + CG4174,2,-1.62,-0.296,1.01
CG15728,1,0.298,1.25,-1.75
CG15728,2,-0.195,-0.896,-0.964
CG15728,3,-0.971,-1.48,-0.027
CG17982,1,0.836,1.5,1.43
mRpS14,1,0.28,0.156,0.675
CR43670 + CR43669 + CR43671,1,1.12,-0.75,-0.461
Reg-2,1,0.152,0.366,-1.7
Reg-2,2,0.4,-0.329,-0.427
Reg-2,3,1.1,0.287,0.654
pum,1,-0.494,-0.739,-1.38
pum,2,0.919,0.0761,-2.07
pum,3,-1.56,-0.631,-0.29
pum,4,-0.184,-0.205,0.173
pum,5,-0.0466,-7.12,-0.315
PGRP-LC,1,0.772,1.73,0.675
PGRP-LC,2,-0.527,0.183,0.65
PGRP-LC,3,-4.41,0.701,1.04
PGRP-LC,4,1.16,1.74,1.67
RpL21,1,2.49 (active),2.04,1.54
amrt,1,0.495,-0.00592,0.9
amrt,2,0.889,0.165,0.508
CG31548,1,-0.51,0.26,1.23
CG31548,2,1.23,-0.15,0.207
CG13613,1,0.613,-1.78,0.773
Gr28a,1,-1.14,0.397,2.02
Psf2,1,0.493,-5.45,0.863
unc-104,1,0.191,0.903,0.931
aspr,1,0.596,-0.0885,0.696
aspr,2,0.328,0.0541,0.767
Snx21,1,0.237,-0.88,-2.7
Snx21,2,-1.46,-1.22,-0.334
Jon99Fi + Jon99Cii + Jon99Fii + 1 more,1,-0.605,-1.08,0.000931
Jhbp15,1,-2.32,-0.461,0.284
CG8369,1,0.187,-0.0183,0.348
MED26,1,2.29,-0.159,1.02
MED26,2,0.0615,1.2,1.12
MED26,3,0.802,0.421,0.449
CG7239,1,0.25,-0.175,0.715
TfIIEalpha,1,-0.102,-7.53,0.0227
TfIIEalpha,2,-1.17,-0.486,0.00331
Tsp42Ec,1,1.51,0.585,1.11
Tsp42Ec,2,-1.13,0.344,1.35
